PubChem BioAssay AID1259414, Drosophila RNAi Screening Center, 2018

Screen: 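Host factors increasing or decreasing Wolbachia levels in cultured fly cells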 (primary screen)
Cells: Drosophila JW18 cells infected with Wolbachia
Reagent: long dsRNA against Drosophila genes, 0.25 µg dsRNA per well of a 384-well plate
Duration: 5 days
Treatment: cells persistently infected with Wolbachia before knock-down; no added drug
Measurement: 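Imaged fluorescence in situ signal for Wolbachia 23S rRNA per DAPI-counted host cell, given as a robust z-score within each plate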
Reading the numbers: Wolbachia per cell robust z: higher = more Wolbachia per host cell than the plate typical
Active means: 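Hit when robust z is 1.5 or more, or -1.5 or less, in at least two of three replicates; excludes dsRNAs with several or no targets, genes not expressed in JW18 and well A1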
The screen tested about 24,000 reagents; below is an unselected part of those with a known target gene and a result. Of all reagents, about 1,210 (5%) got an active call. 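Inactive calls also include excluded dsRNAs with several or no targets, genes unexpressed in JW18, and well A1, regardless of score.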 A plus sign joins genes that one reagent is predicted to hit.

| gene | DRSC id | Wolbachia per cell robust z, rep 1 | Wolbachia per cell robust z, rep 2 | Wolbachia per cell robust z, rep 3 | call |
| --- | --- | --- | --- | --- | --- |
| CG2681 | DRSC18464 | -0.521 | 0.188 | 0.887 | inactive |
| CG2681 | DRSC24864 | 0.809 | -1.19 | -1.32 | inactive |
| Try29F | DRSC03466 | -5.28 | -0.227 | -0.412 | inactive |
| Try29F | DRSC25721 | -2.48 | -2.01 | -1.46 | active |
| MRP | DRSC02942 | -0.262 | 0.541 | -3.22 | inactive |
| MRP | DRSC40861 | -0.226 | -1.41 | 0.313 | inactive |
| CG31091 | DRSC15933 | -0.417 | 0.783 | -3.57 | inactive |
| RpS15Aa + RpS15Ab | DRSC19831 | 2.88 | 2.21 | 3.88 | inactive |
| Cpr64Aa | DRSC08460 | 0.852 | 1.18 | 1.17 | inactive |
| Cpr64Aa | DRSC23801 | 1.81 | 0.416 | 2.34 | inactive |
| CG15743 | DRSC19709 | -0.0435 | 0.00129 | -5.18 | inactive |
| CG15743 | DRSC26389 | -0.329 | 0.951 | 1.08 | inactive |
| CG15743 | DRSC41575 | 0.288 | 1.22 | 0.685 | inactive |
| SRPK | DRSC07090 | 0.608 | -0.0847 | -0.00898 | inactive |
| SRPK | DRSC28162 | 1.21 | 1.09 | 0.0466 | inactive |
| CG17110 | DRSC15173 | -3 | 0.179 | -0.22 | inactive |
| Dh31-R | DRSC06669 | -0.114 | -0.199 | -1.94 | inactive |
| Dh31-R | DRSC23417 | 0.865 | -0.624 | 1.56 | inactive |
| ND-24L | DRSC10650 | -0.133 | 0.245 | -0.419 | inactive |
| ND-24L | DRSC28201 | -1.05 | -0.117 | -1.34 | inactive |
| CG13510 | DRSC04152 | 0.257 | 0.428 | 0.224 | inactive |
| CG13248 | DRSC11696 | -4.58 | -0.275 | -1.73 | active |
| CG13248 | DRSC24446 | 0.138 | 0.422 | -0.445 | inactive |
| Creld | DRSC00308 | 0.123 | 0.367 | 0.295 | inactive |
| Creld | DRSC29338 | -1.89 | -0.0715 | -0.631 | inactive |
| CG10359 | DRSC08156 | -1.22 | 0.172 | 0.612 | inactive |
| sNPF-R | DRSC10836 | -2.15 | -6.28 | 0.866 | inactive |
| CG42296 | DRSC00394 | -0.739 | -1.2 | -1.6 | inactive |
| CG3698 | DRSC11749 | 0.622 | -0.0638 | -1.25 | inactive |
| CG3698 | DRSC26417 | -0.798 | -0.456 | -1.36 | inactive |
| CG13658 | DRSC14659 | 1.11 | 0.67 | 0.459 | inactive |
| CG13658 | DRSC25434 | 0.466 | -0.249 | -0.252 | inactive |

Continued; the last 5 above are carried over.
| gene | DRSC id | Wolbachia per cell robust z, rep 1 | Wolbachia per cell robust z, rep 2 | Wolbachia per cell robust z, rep 3 | call |
| --- | --- | --- | --- | --- | --- |
| CG42296 | DRSC00394 | -0.739 | -1.2 | -1.6 | inactive |
| CG3698 | DRSC11749 | 0.622 | -0.0638 | -1.25 | inactive |
| CG3698 | DRSC26417 | -0.798 | -0.456 | -1.36 | inactive |
| CG13658 | DRSC14659 | 1.11 | 0.67 | 0.459 | inactive |
| CG13658 | DRSC25434 | 0.466 | -0.249 | -0.252 | inactive |
| Glut1 | DRSC07927 | -4.14 | 0.311 | 0.152 | inactive |
| Glut1 | DRSC08378 | 0.838 | 1.49 | 0.675 | inactive |
| Glut1 | DRSC08662 | 0.459 | 0.986 | 0.44 | inactive |
| Glut1 | DRSC27241 | 0.323 | 0.831 | 0.412 | inactive |
| Glut1 | DRSC39042 | 0.447 | -2.41 | -0.497 | inactive |
| Glut1 | DRSC41301 | -1.7 | 0.813 | 1.03 | inactive |
| Atat | DRSC10392 | 2.14 | -0.111 | -0.573 | inactive |
| Or47b | DRSC07492 | -0.438 | -1.5 | -0.0448 | inactive |
| Mks1 | DRSC19697 | 0.523 | -2.18 | 0.756 | inactive |
| RanBPM | DRSC06079 | -0.485 | 0.412 | 0.093 | inactive |
| RanBPM | DRSC25174 | -0.308 | -0.439 | -0.242 | inactive |
| CG10171 | DRSC09711 | -7.39 | -0.243 | -0.886 | inactive |
| CG10171 | DRSC26279 | -1.79 | 0.0911 | 1.96 | inactive |
| DIP-epsilon | DRSC00932 | 0.222 | 0.0916 | -0.348 | inactive |
| DIP-epsilon | DRSC02313 | -1.02 | 0.842 | -0.359 | inactive |
| DIP-epsilon | DRSC26835 | -1.95 | 0.109 | -0.827 | inactive |
| CG34181 | DRSC38923 | -1 | -5.98 | -0.451 | inactive |
| CG4259 | DRSC00645 | 0.468 | -0.575 | -0.344 | inactive |
| CG4259 | DRSC29614 | -0.594 | 0.186 | -1.63 | inactive |
| dare | DRSC07602 | 0.212 | -1.93 | 0.207 | inactive |
| Mal-A7 | DRSC06077 | 0.0669 | -0.104 | -3.53 | inactive |
| lncRNA:CR34044 | DRSC37789 | 0.325 | 0.998 | -0.167 | inactive |
| CG6153 | DRSC02935 | 0.0731 | -0.322 | -0.303 | inactive |
| CG33340 | DRSC14615 | -0.953 | 0.88 | 0.723 | inactive |
| CG33340 | DRSC26638 | -5.38 | -3.5 | -3.36 | inactive |
| CG14417 | DRSC18638 | 0.56 | 0.298 | 0.275 | inactive |
| Cdc5 | DRSC08577 | 3.4 | 2.77 | 4.19 | active |
| CG7655 | DRSC16275 | -0.442 | -4.18 | -4.9 | active |
| CG31460 | DRSC14370 | 1.11 | 1.1 | -0.000324 | inactive |
| Sox102F | DRSC17204 | -0.939 | 0.0441 | 0.456 | inactive |
| Sox102F | DRSC25915 | -0.194 | 0.192 | 1.4 | inactive |
| CG30022 | DRSC22405 | -0.126 | -0.747 | -2.43 | inactive |
| CG32374 | DRSC10986 | -0.113 | 0.254 | -1.89 | inactive |
| cib | DRSC18660 | -1.17 | 0.00881 | -1.25 | inactive |
| flz | DRSC07109 | -1.33 | -1.31 | -0.124 | inactive |
| CG5004 | DRSC19929 | -0.129 | 0.0889 | 0.361 | inactive |
| CG5004 | DRSC19930 | -0.647 | 0.616 | 0.892 | inactive |
| CG4839 | DRSC02783 | -0.135 | -0.0358 | 0.129 | inactive |
| CG4839 | DRSC02784 | 1.19 | 0.71 | 1.05 | inactive |
| CG2854 | DRSC18595 | -1.88 | -0.826 | -0.223 | inactive |
| Grip91 | DRSC20249 | -3.29 | -0.127 | 0.649 | inactive |
| Grip91 | DRSC41548 | 0.207 | -1.03 | -0.503 | inactive |
| GstE6 | DRSC06676 | -4.18 | 0.6 | 0.643 | inactive |
| Asx | DRSC23408 | 1.12 | -1.77 | 0.491 | inactive |
| FIG4 | DRSC00515 | 0.271 | -5.16 | 0.842 | inactive |
| CG9795 | DRSC12336 | -2.09 | -0.532 | -0.719 | inactive |
| CG9795 | DRSC24244 | -0.459 | -0.0989 | -1.03 | inactive |
| Epac | DRSC04969 | -0.221 | -0.527 | -1.17 | inactive |
| Epac | DRSC04996 | 0.464 | -2.57 | 0.441 | inactive |
| Epac | DRSC04997 | 0.107 | 0.166 | 1.04 | inactive |
| RhoGAP71E | DRSC10232 | 0.566 | 0.647 | -0.606 | inactive |
| RhoGAP71E | DRSC10838 | -0.682 | 2.3 | 0.36 | inactive |
| RhoGAP71E | DRSC29082 | -0.16 | 0.561 | 0.533 | inactive |
| ms(2)35Ci | DRSC01460 | 1.53 | 1.61 | 2.12 | inactive |
| Adgf-E | DRSC05973 | -0.239 | 0.603 | -1.1 | inactive |
| Adgf-E | DRSC27287 | -0.859 | 1.28 | -2 | inactive |
